Results of unrelated studies side by side (data: NIAID ChemDB).

Common to all: growth or infection tests; agent: Human cytomegalovirus; method: plaque count; endpoint: EC50

Rows are shuffled and stem from different studies.

Cc1c(Br)cc(Br)c2ncc(CSC(C)c3cccs3)n12 ; cells: HEL ; strain or isolate: DAVIS ; result: >50 µg/mL
Nc1ccn(C[C@@H](CO)OCP(=O)(O)O)c(=O)n1 ; cells: HEL ; strain or isolate: LY9725 (ganciclovir-resistant) ; result: 0.73 µM
O=C1c2ccccc2C(=O)N1[C@H]1CC2CC3CC(C2)C1C3 ; cells: HEL ; strain or isolate: AD169 ; result: >20 µg/mL
Nc1nc2c(ncn2COC(CO)CO)c(=O)[nH]1 ; cells: HFF ; strain or isolate: RCMP97 (drug-resistant) ; result: 35 µM
CCCCCCCCCCCCCCCCOCCCOP(=O)(O)CO[C@H](CO)Cn1ccc(N)nc1=O ; cells: MRC-5 ; strain or isolate: C9209/1-4-4 drug-resistant mutant ; result: 0.003 µM
Cn1cc(C(=O)NCc2ccc(Cl)cc2)c(=O)c2cc(CN3CCOCC3)ccc21 ; cells: HFF ; strain or isolate: WA ; result: 1.2 µM
O=C(O)P(=O)(O)O ; cells: MRC-5 ; strain or isolate: AD169 (ganciclovir foscarnet-susceptible) ; result: 65.66 µM
CC(C)COC1=NS(=O)(=O)N(Cc2ccc(Cl)c(Cl)c2)c2ccccc21 ; cells: MRC-5 ; strain or isolate: AD169 ; result: 9.6 µM
Cc1ccc(/C=N/NC(=O)c2ccccc2S(=O)(=O)NC(C)C)cc1 ; cells: HEL ; strain or isolate: DAVIS ; result: >100 µM
NC12CC3CC(CC(C3)C1C(=O)c1ccccc1C(=O)O)C2 ; cells: HEL ; strain or isolate: DAVIS ; result: >100 µg/mL
O=C(NCc1ccc(Cl)cc1)c1c[nH]c2ccc(C#CCO)cc2c1=O ; strain or isolate: ADI ; result: 1.4 µM
Nc1nc2c(ncn2COC(CO)CO)c(=O)[nH]1 ; cells: HFF ; strain or isolate: TOWNE ; result: 13.3 µM
Cc1c(Br)cc(Br)c2ncc(CSCc3ccco3)n12 ; cells: HEL ; strain or isolate: AD169 ; result: 2.9 µg/mL
Nc1nc2c(ncn2COC(CO)CO)c(=O)[nH]1 ; cells: MRC-5 ; strain or isolate: PAAR ; result: 5.49 µM
Cc1cccc(CSCc2cnc3c(Br)cc(Br)c(C)n23)c1 ; cells: HEL ; strain or isolate: AD169 ; result: >20 µg/mL
Nc1nc2c(ncn2CCC(CO)CO)c(=O)[nH]1 ; result: 10–100 µM
COC(=O)CC[C@@H]1C[C@H]2CCC[C@](NC(=O)c3ccccc3C(=O)N[C@@]34CCC[C@@H](C[C@H](CCC(=O)OC)C3)C4)(C2)C1 ; cells: HEL ; strain or isolate: DAVIS ; result: >100 µg/mL
CN(C)c1cccc2c(S(=O)(=O)Nc3ccc(NC(=O)C(C)(C)CO)cc3)cccc12 ; strain or isolate: Isolate B.K ; result: 1.97 µM
Nc1nc2c(ncn2COC(CO)CO)c(=O)[nH]1 ; result: 1–10 µM
C[C@@H]1O[C@@H](n2c(Cl)nc3cc(Cl)c(Cl)cc32)[C@H](O)[C@@H]1O ; strain or isolate: 17517 (GCV-susceptible) ; result: 0.57 µM
OC[C@H]1O[C@@H](n2c(Br)nc3cc(Cl)c(Cl)cc32)[C@H](O)[C@@H]1O ; cells: HFF ; strain or isolate: 759RD100 (drug-resistant) ; result: 0.4 µM
OC[C@H]1O[C@@H](n2c(Br)nc3cc(Cl)c(Cl)cc32)[C@H](O)[C@@H]1O ; strain or isolate: AD169 ; result: 0.58 µM
OC[C@H]1O[C@@H](n2c(Cl)nc3cc(Cl)c(Cl)cc32)[C@H](O)[C@@H]1O ; cells: MRC-5 ; strain or isolate: AD169 ; result: 2.8 µM
Nc1ccn(C[C@@H](CO)OCP(=O)(O)O)c(=O)n1 ; cells: MRC-5 ; strain or isolate: PAAR ; result: 0.61 µM
Nc1nc2c(ncn2COC(CO)CO)c(=O)[nH]1 ; cells: HEL ; strain or isolate: DAVIS ; result: 0.9 µg/mL
CC(C)NS(=O)(=O)c1ccccc1C(=O)NNC(=O)c1ccc(Cl)cc1 ; cells: HEL ; strain or isolate: DAVIS ; result: >100 µM
OC[C@H]1O[C@@H](n2c(Br)nc3cc(Cl)c(Cl)cc32)[C@H](O)[C@@H]1O ; strain or isolate: TOWNE ; result: 2.3 µM
CCCCN1C(=O)c2ccccc2N(C(=O)c2ccc(Br)cc2)S1(=O)=O ; cells: MRC-5 ; strain or isolate: AD169 ; result: 2 µM
Cc1c(Br)cc(Br)c2ncc(CSCCCc3ccccc3)n12 ; cells: HEL ; strain or isolate: DAVIS ; result: 2.3 µg/mL
Cn1ncc2c3cc(Cl)c(Cl)cc3n([C@@H]3O[C@H](CO)[C@@H](O)[C@H]3O)c21 ; cells: HFF ; result: 0.7 µM
CC#Cc1cn([C@H]2C[C@H](O)[C@@H](CO)O2)c(=O)[nH]c1=O ; cells: VERO ; result: >100 µM
COc1ccc(CSCc2cnc3c(Br)cc(Br)c(C)n23)cc1 ; cells: HEL ; strain or isolate: DAVIS ; result: >50 µg/mL
CN(C)c1cccc2c(S(=O)(=O)Nc3ccc(NC(=O)C(C)(C)CO)cc3)cccc12 ; strain or isolate: 8 strains ; result: 1.17 µM
Fc1cccc(-c2cc3ccccn3c2)c1 ; cells: MRC-5 ; strain or isolate: AD169 ; result: >100 µM
COc1cccc(N2CCN(C3=Nc4c(F)cccc4[C@H](CC(=O)O)N3c3cc(C(F)(F)F)ccc3OC)CC2)c1 ; strain or isolate: Clinical isolate 17 ; result: 0.0009 µM
COc1ccccc1CNC(=O)C1=Cc2ccncc2CC1 ; cells: HFF ; strain or isolate: 1117R73-1-2 ; result: 5.6 µM
O=C(NCc1ccc(Cl)cc1)c1c[nH]c2ccc(C#CCO)cc2c1=O ; strain or isolate: 9 isolates ; result: 1.3 µM
CCCCCCCCCCCCCCCCCCOCCOP1(=O)CO[C@@H](Cn2ccc(N)nc2=O)CO1 ; cells: MRC-5 ; strain or isolate: WILD TYPE ; result: 0.0015 µM
Brc1sccc1-c1cc2ccccn2c1 ; cells: MRC-5 ; strain or isolate: AD169 ; result: >100 µM
O[C@@H]1[C@H](O)[C@H](O)CO[C@H]1n1c(Br)nc2cc(Cl)c(Cl)cc21 ; cells: HFF ; strain or isolate: C9208/5-4-2 ; result: 2.3 µM
O=C(NCCc1ccccc1)C1=Cc2ccncc2CC1 ; cells: HFF ; strain or isolate: 1117R73-1-2 ; result: 0.3 µM
CC(=O)c1ccc2cc(-c3ccccc3)cn2c1 ; cells: MRC-5 ; strain or isolate: AD169 ; result: >100 µM
CN(C)c1cccc2c(S(=O)(=O)Nc3ccc(NC(=O)C(C)(C)CO)cc3)cccc12 ; cells: HFF ; strain or isolate: D10 (BDCRB-resistant) ; result: 2.4 µM
Nc1nc2c(ncn2[C@@H]2C[C@H](CO)[C@H]2CO)c(=O)[nH]1.O=C(O)P(=O)(O)O ; cells: MRC-5 ; strain or isolate: PC92 (ganciclovir- foscarnet-susceptible) ; result: 1.21 µM
CC(C)=CCn1c(=O)sc2c(=O)[nH]c(N)nc21 ; strain or isolate: TOWNE ; result: 6.8 µM
Nc1nc2c(ncn2COC(CO)CO)c(=O)[nH]1 ; cells: HFF ; strain or isolate: Isolate Helebrand (wild type) ; result: 6.91 µM
Nc1nc2c(ncn2COC(CO)CO)c(=O)[nH]1 ; cells: HFF ; strain or isolate: TOWNE ; result: 2.3 µM
CCCCN1C(=O)c2ccccc2N(C(=O)c2ccccc2)S1(=O)=O ; cells: MRC-5 ; strain or isolate: AD169 ; result: 24.6 µM
O=C(O)c1ccccc1C(=O)NC12CC3CC(C1)CC(C(=O)O)(C3)C2 ; cells: HEL ; strain or isolate: DAVIS ; result: >100 µg/mL
Nc1ccn(C[C@@H](CO)OCP(=O)(O)O)c(=O)n1 ; cells: HEL ; strain or isolate: DAVIS ; result: 1.84 µM
Nc1ccn(C[C@@H](CO)OCP(=O)(O)O)c(=O)n1 ; cells: HELF ; strain or isolate: HE ; result: 0.49 µM
Brc1ccc(-c2cc3ccccn3c2)cc1 ; cells: MRC-5 ; strain or isolate: AD169 ; result: >100 µM
CC(C)COC1=NS(=O)(=O)N(Cc2ccc(Cl)cc2)c2ccccc21 ; cells: MRC-5 ; strain or isolate: AD169 ; result: 5.2 µM
CCCCOC[C@H]1O[C@@H]2CC(C)(C)C[C@@H]2[C@H]1OCCCC ; cells: HEL ; strain or isolate: AD169 ; result: 10.5 µg/mL
Nc1nc2c(ncn2C[C@]2(CO)C[C@H]2CO)c(=O)[nH]1 ; result: 10–100 µM
O=C1c2ccccc2C(=O)N1C1CC2CC3CC(C2)CC1C3 ; cells: HEL ; strain or isolate: AD169 ; result: >100 µg/mL
Clc1cccn2cc(-c3ccccc3)cc12 ; cells: MRC-5 ; strain or isolate: AD169 ; result: >100 µM
O=C(NCc1ccc(Cl)cc1)c1cn2c3c(cc(CN4CCOCC4)cc3c1=O)OC(c1cccnc1)C2 ; cells: HFF ; strain or isolate: DAVIS ; result: 3.9 µM
Cc1cc(C)n2cc(-c3ccccc3)cc2c1 ; cells: MRC-5 ; strain or isolate: AD169 ; result: 2.7 µM
Cc1c(Br)cc(Br)c2ncc(CSCc3ccc(Cl)c(Cl)c3)n12 ; cells: HEL ; strain or isolate: DAVIS ; result: >5 µg/mL
CC(C)CN1C(=O)c2ccccc2N(Cc2ccc(Cl)c(Cl)c2)S1(=O)=O ; cells: MRC-5 ; strain or isolate: AD169 ; result: 14.5 µM
O=C1c2ccccc2C(=O)N1CCCC1C2CC3CC(C2)CC1C3 ; cells: HEL ; strain or isolate: AD169 ; result: ≥4 µg/mL
Nc1nc2c(ncn2COC(CO)CO)c(=O)[nH]1 ; cells: HFF ; strain or isolate: MAJOR ; result: 4.8 µM
O=C(NCc1ccc(Cl)cc1)c1c[nH]c2ccc(CCCO)cc2c1=O ; strain or isolate: AD169 ; result: 0.2 µM
Cc1c(Br)cc(Br)c2ncc(CSCc3ccccc3F)n12 ; cells: HEL ; strain or isolate: AD169 ; result: >5 µg/mL
CC(=O)c1ccc(NC(=O)CN2C(=O)c3ccccc3S2(=O)=O)cc1 ; cells: HEL ; strain or isolate: DAVIS ; result: >100 µM
OC[C@H]1O[C@@H](c2ccccc2)[C@H](O)[C@@H]1O ; cells: HEL ; strain or isolate: DAVID ; result: >50 µg/mL
Cc1ccc(CSCc2cnc3c(Br)cc(Br)c(C)n23)cc1 ; cells: HEL ; strain or isolate: AD169 ; result: >50 µg/mL
CC(=O)OC[C@H]1O[C@@H](c2ccccc2)C[C@@H]1OC(C)=O ; cells: HEL ; strain or isolate: DAVID ; result: >100 µg/mL
CN(C)c1cccc2c(S(=O)(=O)Nc3ccc(NC(=O)C(C)(C)CO)cc3)cccc12 ; cells: HFF ; strain or isolate: Isolate Helebrand (wild type) ; result: 1.21 µM
O=C1NCC2(C(=O)C3C=CC=CC13)C1CC3CC(C1)CC2C3 ; cells: HEL ; strain or isolate: DAVIS ; result: >20 µg/mL
Nc1nc2c(ncn2/C=C2/CC2(CO)CO)c(=O)[nH]1 ; cells: HFF ; strain or isolate: DAVIS ; result: 1 µM
O=C(O)P(=O)(O)O ; cells: HFF ; strain or isolate: Isolate Helebrand (resistant) ; result: 94.01 µM
Cn1cc(C(=O)NCc2ccc(Cl)cc2)c(=O)c2cc(CN3CCOCC3)ccc21 ; cells: HFF ; strain or isolate: 759/R D100 (GCV-resistant) ; result: 4.2 µM
O=C(NCc1ccc(Cl)cc1)c1c[nH]c2ccc(C#CCO)cc2c1=O ; strain or isolate: 759rD100 ; result: 0.1 µM
OC[C@H]1O[C@@H](n2c(Br)nc3cc(Cl)c(Cl)cc32)[C@H](O)[C@@H]1O ; cells: HFF ; strain or isolate: Isolate D10 (D344E mutation) ; result: 7.3 µM
CCCCOC(=O)c1ccc2cc(-c3ccccc3)cn2c1 ; cells: MRC-5 ; strain or isolate: AD169 ; result: >100 µM
Cc1cccn2c(CSCc3ccccc3)cnc12 ; cells: HEL ; strain or isolate: AD169 ; result: 0.2 µg/mL
CC(C)Oc1ccccc1CNC(=O)c1ccc2cnccc2n1 ; cells: MRC-5 ; strain or isolate: C8805-37 ; result: 0.02 µM
CCCCCCCCCCCCCCCCCCOCCOP(=O)(O)CO[C@H](CO)Cn1ccc(N)nc1=O ; cells: MRC-5 ; strain or isolate: DAVIS ; result: 0.0009 µM
O=C1c2ccccc2C(=O)N1CCC12CC3CC(CC(C3)C1)C2 ; cells: HEL ; strain or isolate: AD169 ; result: >20 µg/mL
COc1ccc(-c2cc3ccccn3c2)cc1OC ; cells: MRC-5 ; strain or isolate: AD169 ; result: >100 µM
NC(=O)c1c(Cl)c(-c2cccnc2)n2c1CCCC2 ; cells: HEL ; strain or isolate: U9070 (ganciclovir-resistant) ; result: 0.0018 µM

ECn: concentration that inhibits the pathogen or its effect by n%. a–b is a range or a potency band.